Tested on: HIF1α signaling
Assay: HIF1α dual fluorescence reporter assay in C6#4 tumor cell spheroids
Format: cell-based

Structure (SMILES): N[C@@H](Cc1ccc([N+]([O-])(CCCl)CCCl)cc1)C(=O)O
- effect on CoCl2-induced HIF1α signaling (C6#4 reporter cells, 200 μm CoCl2): suppressed CoCl2-induced HIF1α signaling
- level of HIF1α expression and activity (C6#4 spheroids): inhibited the level of HIF1α expression and activity
- hypoxic response of spheroids (GFP expression) (spheroids): inhibited
